Measured values from several laboratories, pooled; numbers as filed in NIAID ChemDB.

ECn: concentration that inhibits the pathogen or its effect by n%. Lines come from different laboratories, so protocols vary. ICn is the concentration giving n% inhibition. Inhibition is in % at the dose shown (toxicity tests: loss of growth or viability). An empty or dashed field is not shown. MIC50, MIC90 and the like: level of inhibition, or share of isolates inhibited.

structure,kind,agent,strain or isolate,cells,protein,read by,measure,dose,result
Cc1nc(NCCCCNc2ccnc3cc(Cl)ccc23)nc(-c2ccccc2)c1C(=O)OC(C)C,culture,Cryptococcus neoformans,VM-MCMMPI,,,,MIC99,,8 µg/mL
COc1ccccc1N1CCN(c2cncc(-c3ccc(SC)cc3)n2)CC1,target,Cytomegalovirus,,,UL97 kinase,,inhibition,1 µM,<50%
O=S(=O)(O)c1ccc2ccc(S(=O)(=O)O)cc2c1,culture,Adenovirus,TYPE 3,Human embryonic lung cells,,cytopathic effect,inhibition,50 µg/mL,0%
Oc1ccc(O)c(C=Nc2ccccc2O)c1,culture,Cryptococcus gattii,ATCC 32608,,,,MIC99,,8 µg/mL
Cc1ccc(N2CCN(c3cncc(-c4ccc(F)c(Cl)c4)n3)CC2)c(C)c1,target,Cytomegalovirus,,,UL97 kinase,,inhibition,10 µM,>15%
Nc1cc(S(=O)(=O)[O-])cc2cc(S(=O)(=O)[O-])ccc12,culture,Adenovirus,TYPE 3,Human amnion AV3 cells,,cytopathic effect,inhibition,50 µg/mL,0%
Fc1ccc(N2CCCCC2)c(NC(=S)c2ccncc2)c1,host protein,,,,Ret (V804L),kinase activity,inhibition,10 µM,11%
Oc1cccc(C=Nc2ccccc2O)c1,culture,Cryptococcus gattii,29/10893,,,,MIC99,,4 µg/mL
COc1ccc(N2CCN(c3cncc(-c4ccc(C(F)(F)F)cc4)n3)CC2)cc1OC,target,Cytomegalovirus,,,UL97 kinase,,IC50,,<10 µM
O=C(O)c1cc(S(=O)(=O)[O-])ccc1O,culture,Herpes simplex virus,,Human amnion AV3 cells,,cytopathic effect,inhibition,5 µg/mL,0%
O=[N+]([O-])c1ccc(C=Nc2ccccc2O)cc1,culture,Cryptococcus neoformans,VM-MCMMPI,,,,MIC99,,32 µg/mL
Cc1cc(-c2ccc(N=Nc3ccc4c(S(=O)(=O)O)cc(S(=O)(=O)O)c(N)c4c3O)c(C)c2)ccc1N=Nc1ccc2c(S(=O)(=O)O)cc(S(=O)(=O)O)c(N)c2c1O,culture,Adenovirus,TYPE 3,Human embryonic lung cells,,cytopathic effect,inhibition,50 µg/mL,0%
C=CCc1ccc(OC)c(OC)c1,culture,Candida albicans,2643,,,turbidity,MIC90,,340 µg/mL
CCC(CC)O[C@@H]1C=C(C(=O)O)C[C@H](N)[C@H]1NC(C)=O,culture,Influenza A virus,Influenza A/Johannesburg/33/94 (H3N2),MDCK,,visual reading,EC50,,0.18 µM
CCOC(=O)/C=C/[C@H](C[C@@H]1CCNC1=O)NC(=O)[C@@H](CC(=O)[C@@H](NC(=O)c1cc(C)on1)C(C)C)Cc1ccc(F)cc1,culture,Rhinovirus,Isolate 38,OHIO HELA-I,,cytopathic effect / visual reading,EC50,,0.02 µg/mL
CN(C)c1ccc(-c2cncc(N3CCC(c4ccccc4)CC3)n2)cc1,target,Cytomegalovirus,,,UL97 kinase,,IC50,,<10 µM
Nc1ccc2cc(S(=O)(=O)O)cc(S(=O)(=O)O)c2c1,culture,Adenovirus,TYPE 3,Human embryonic lung cells,,cytopathic effect,inhibition,10 µg/mL,0%
CCOC(=O)c1ccc(OCCC2CCN(c3ccc(C)nn3)CC2)cc1,culture,Rhinovirus,CH79 (ICAM-1 receptor group 38),KB,,neutral red,EC50,,0.027 µM
c1ccc(C2CCN(c3cncc(-c4ccsc4)n3)CC2)cc1,target,Cytomegalovirus,,,UL97 kinase,,IC50,,<10 µM
O=S(=O)([O-])c1ccc2c(NS(=O)(=O)c3ccccc3)cc(S(=O)(=O)[O-])cc2c1,culture,Herpes simplex virus,,Human conjunctiva cells,,cytopathic effect,inhibition,50 µg/mL,25%

The last 3 rows once more:

CCOC(=O)c1ccc(OCCC2CCN(c3ccc(C)nn3)CC2)cc1 ; kind: culture ; agent: Rhinovirus ; strain or isolate: CH79 (ICAM-1 receptor group 38) ; cells: KB ; read by: neutral red ; measure: EC50 ; result: 0.027 µM
c1ccc(C2CCN(c3cncc(-c4ccsc4)n3)CC2)cc1 ; kind: target ; agent: Cytomegalovirus ; protein: UL97 kinase ; measure: IC50 ; result: <10 µM
O=S(=O)([O-])c1ccc2c(NS(=O)(=O)c3ccccc3)cc(S(=O)(=O)[O-])cc2c1 ; kind: culture ; agent: Herpes simplex virus ; cells: Human conjunctiva cells ; read by: cytopathic effect ; measure: inhibition ; dose: 50 µg/mL ; result: 25%